Anti-infective test results gathered from many reports (values: NIAID ChemDB through PubChem).

Common to all: growth or infection tests; species: HIV-2; read-out: EC50

ECn is the concentration giving n% inhibition of infection, replication or growth.

compound	read by	strain	cells	setting	value
CC(C)(C)[Si](C)(C)OCC1OC(n2nncc2C(=O)N2CCC2)C(O[Si](C)(C)C(C)(C)C)C12OS(=O)(=O)C=C2N	cytopathic effect	ROD	MT-4		>50 µM
CC1(C)C2=CC(=O)C(O)(c3ccccc3)C(=O)N2c2ccc(Cl)cc21	cytopathic effect / MTT	ROD	MT-4		>10 µM
Nc1nc2c(ncn2CCOCP(=O)(O)O)c(=O)[nH]1	cytopathic effect / trypan blue	LAV-2	MT-4		2.2 µM
CN(C)C1=NS(=O)(=O)NC(Cc2ccc3ccccc3c2)=C1	MTT	ROD	MT-4		>268 µM
COc1ccc2c(c1)COP(=O)(OC[C@@H]1C=C[C@H](n3cnc4c(NC5CC5)nc(N)nc43)C1)O2	syncytia	ROD	CEM		2 µM
CCOP(=O)(/C=C/n1cc(C)c(=O)[nH]c1=O)OCC		ROD	CEM + CEM-SS		>200 µM
O=c1[nH]cnc2c1ncn2C1CC[C@@H](CO)O1	MTT	ROD	MT-4		2.71 µM
CC(C)NC(=O)c1cnnn1C1OC(CO[Si](C)(C)C(C)(C)C)C2(OS(=O)(=O)C=C2N)C1O[Si](C)(C)C(C)(C)C	cytopathic effect	ROD	CEM		>50 µM
CN(C(=O)[C@H](Cc1ccccc1)NC(=O)c1cccc(C(=O)Nc2ccc(Br)cc2)c1)c1ccc2scnc2c1	MTT	ROD	MT-4		>6.21 µM
O=c1[nH]cnc2c1ncn2[C@H]1CC[C@@H](CO)O1	cytopathic effect / MTT	MS	CEM-T4 + CEM		0.3 µg/mL
C1CNCCNCC(CCC2CNCCNCCCNCCNC2)CNCCNC1	cytopathic effect / MTT	ROD	MT-4	5 d	3.4 µM
O=S1(=O)NC(Cc2ccc3ccccc3c2)=CC(=NC2CC2)N1	MTT	ROD	MT-4		>218 µM
CCC(C)Nc1nc(N)nc2c1[nH]c[n+]2C[C@@H](C)OCP(=O)(O)O	cytopathic effect / MTT	ROD	MT-4		25 ± 15 µg/mL
CO[P@](=O)(c1cc(C)cc(/C=C/C#N)c1)c1c(C(N)=O)[nH]c2ccc(Cl)cc12		ROD	H9		>1.25 µM
C#C[C@]1(CO)O[C@@H](n2cnc3c(N)ncnc32)C[C@@H]1O	β-galactosidase	ROD	HeLa		0.0019 µM
CCOCn1c([Se]c2ccccc2)c(F)c(=O)[nH]c1=O	RT activity	ROD	PBMC		8.5 µM
O=S1(=O)NC(Cc2ccc3ccccc3c2)=CC(=NCCc2ccccc2)N1	MTT	ROD	MT-4		>141 µM
Cc1ccc(S(=O)(=O)OC[C@H]2O[C@@H](n3cc(C)c(=O)n(C)c3=O)[C@H](O[Si](C)(C)C(C)(C)C)C23OS(=O)(=O)C=C3N)cc1	syncytia	ROD	CEM		>6.2 µM
O=c1[nH]cnc2c1ncn2[C@H]1CC[C@@H](CO)O1		ROD	PBMC		0.5 µM
Nc1ncnc2c1ncn2CC(CF)OCP(=O)(O)O	cytopathic effect / trypan blue	LAV-2	MT-4		11 µM
CCOC(=O)[C@H](C)NP(=O)(OC[C@@H]1C=C[C@H](n2cc(C)c(=O)[nH]c2=O)O1)Oc1ccccc1	cytopathic effect / trypan blue	ROD	CEM + CEM TK-		0.07 µM
Nc1ncnc2c1ncn2CCOCP(=O)(O)O	cytopathic effect / trypan blue	LAV-2	MT-4		5.5 µM
O=c1ccn(/C=C/P(=O)(O)O)c(=O)[nH]1		ROD	CEM + CEM-SS		>200 µM
C#C[C@]1(CO)O[C@@H](n2cnc3c(=O)[nH]cnc32)C[C@@H]1O	β-galactosidase	ROD	HeLa		0.29 µM
CN(C)CCNc1nc(N)nc2c1ncn2CCOCP(=O)(O)O	cytopathic effect / MTT	ROD	CEM		2 µg/mL
COc1c(O)c(I)c2c(c1OC)-c1c(c(I)c(O)c(OC)c1OC)C[C@H](C)[C@H](C)C2	cytopathic effect / MTT	CBL-20	MT-4		>16 µM
CC[C@@]1(O)C(=O)OCc2c1cc1n(c2=O)Cc2c-1nc1ccccc1c2CO	syncytia	CBL-20	C8166		0.0005 µg/mL
CC(C)(C)[Si](C)(C)OCC1OC(n2nncc2C(=O)NC2CC2)C(O[Si](C)(C)C(C)(C)C)C12OS(=O)(=O)C=C2N	cytopathic effect	ROD	CEM		>50 µM
CCC(C)Nc1nc(N)nc2c1ncn2CCOCP(=O)(O)O	cytopathic effect / MTT	ROD	MT-4		2 µg/mL
CCOP(=O)(/C=C/n1cnc2c(=O)[nH]c(NC(C)=O)nc21)OCC		ROD	CEM + CEM-SS		>200 µM
c1cc(CN2CCCNCCNCCCNCC2)ccc1CN1CCCNCCNCCCNCC1	cytopathic effect / MTT	ROD	MT-4		0.007 µg/mL
COC(=O)[C@H](C)NP(=O)(OC[C@@H]1C=C[C@H](n2cc(C)c(=O)[nH]c2=O)O1)Oc1ccccc1			CEM		0.075 µM
Nc1ccn(/C=C\P(=O)(O)O)c(=O)n1		ROD	CEM + CEM-SS		>200 µM
NOCc1c(F)cccc1Cl	cytopathic effect / MTT	EHO	MT-4		6.6 µg/mL
Cc1cccc2c1OP(=O)(OCCOCn1cnc3c(=O)[nH]c(N)nc31)OC2	syncytia	ROD	CEM		≥50 µM
CC(C)(C)NC(=O)[C@@H]1C[C@@H]2CCCC[C@@H]2CN1C[C@@H](O)[C@H](Cc1ccccc1)NC(=O)[C@H](CC(N)=O)NC(=O)c1ccc2ccccc2n1		ROD	PBMC		0.0098 µM
N#Cc1ccc(Nc2nccc(C(Cl)c3cccc(Br)c3)n2)cc1	MTT	ROD	MT-4		30.4 µM
COc1ccccc1NC1=NS(=O)(=O)NC(Cc2ccccc2)=C1	MTT	ROD	MT-4		>268 µM
C#C[C@]1(CO)O[C@@H](n2ccc(N)nc2=O)[C@@H](O)[C@@H]1O	β-galactosidase	EHO	HeLa		0.003 µM
Cc1ccnc2c1NC(=O)c1cccnc1N2C1CC1		ROD	PBMC		>62.5 µM
Cc1c(Sc2ccccc2)n(COCCO)c(=O)[nH]c1=O	cytopathic effect / MTT	ROD	MT-4		>250 µM
C#C[C@]1(CO)O[C@@H](n2cc(C)c(=O)[nH]c2=O)C[C@@H]1O	β-galactosidase	EHO	HeLa		0.29 µM
COc1c(O)c(Cl)c2c(c1OC)-c1c(c(Cl)c(O)c(OC)c1OC)C[C@H](C)[C@H](C)C2	cytopathic effect / MTT	ROD	MT-4		>22 µM
Cc1cn([C@@H]2O[C@H](CO[Si](C(C)(C)C)(C(C)(C)C)C(C)(C)C)C3(OS(=O)(=O)C=C3N)[C@H]2O[Si](C)(C)C(C)(C)C)c(=O)n(C)c1=O	syncytia	ROD	CEM		>12 µM
Cc1cn([C@@H]2O[C@H](CO[Si](C)(C)C(C)(C)C)C3(OS(=O)(=O)C=C3N)[C@H]2O[Si](C)(C)C(C)(C)C)c(=O)n(C)c1=O	cytopathic effect / trypan blue	ROD	MT-4		>50 µM
Cc1cn([C@@H]2O[C@H](COC(=O)C(C)(C)C)C3(OS(=O)(=O)C=C3N)[C@H]2O[Si](C)(C)C(C)(C)C)c(=O)[nH]c1=O	syncytia	ROD	MT-4		>35 µM
CC(C)(C)[Si](C)(C)OCC1OC(n2nncc2C(=O)NC2CCCC2)C(O[Si](C)(C)C(C)(C)C)C12OS(=O)(=O)C=C2N	cytopathic effect	ROD	MT-4		>250 µM
CCCc1cc(=O)oc2c3c(c4c(c12)OC(C)(C)C=C4)O[C@H](C)[C@@H](C)[C@@H]3O	XTT	ROD	CEM + CEM-SS		>10 µM
Cc1ccnc2c1NC(=O)c1cccnc1N2C1CC1	cytopathic effect / MTS	NIH-ZY-M	MT-4		>10 µM
Cc1ccc(CN=C2C=C(Cc3ccc4ccccc4c3)NS(=O)(=O)N2)cc1	MTT	ROD	MT-4		>144 µM
CC(C)CN(C[C@@H](O)[C@H](Cc1ccccc1)NC(=O)O[C@H]1CCOC1)S(=O)(=O)c1ccc(N)cc1		ZY	MT-4		0.34 µM
Cc1cn([C@H]2C[C@H](N=[N+]=[N-])[C@@H](CO)O2)c(=O)[nH]c1=O	cytopathic effect / MTT	ROD	MT-4		0.0006 µg/mL
Nc1nc2c(ncn2COCCOP2(=O)OCc3ccccc3O2)c(=O)[nH]1	syncytia	ROD	CEM		≥50 µM
CCOP(=O)(/C=C/n1cc(Br)c(=O)[nH]c1=O)OCC		ROD	CEM + CEM-SS		>200 µM
COc1cc(NC2=NS(=O)(=O)NC(Cc3ccccc3)=C2)cc(OC)c1OC	MTT	ROD	MT-4		>310 µM
CC(=O)Nc1nc2c(ncn2/C=C/P(=O)(O)O)c(=O)[nH]1		ROD	CEM + CEM-SS		>200 µM
Nc1nc2c(ncn2[C@H]2C=C[C@@H](CO)C2)c(=O)[nH]1	syncytia	ROD	CEM		0.17 µM
COc1ccc(CCN=C2C=C(Cc3ccccc3)NS(=O)(=O)N2)cc1	MTT	ROD	MT-4		>209 µM
CC(C)[C@H](NC(=O)c1ccc2ccccc2n1)C(=O)N[C@@H](Cc1ccccc1)[C@H](O)CN1CC[C@@H](OCc2ccncc2)C[C@H]1C(=O)NC(C)(C)C	p24 / ELISA / antigen	ROD	PBMC		0.008 µM
Nc1nc(N2CCOCC2)c2ncn(CCOCP(=O)(O)O)c2n1	cytopathic effect / MTT	ROD	MT-4		16 µg/mL
Cc1cn([C@@H]2O[C@H](COCc3ccccc3)C3(OS(=O)(=O)C=C3NC(=O)c3ccccc3)[C@H]2OC(=O)c2ccccc2)c(=O)[nH]c1=O	syncytia	ROD	CEM		>40 µM
C[C@]1(CO)O[C@@H](n2ccc(N)nc2=O)C[C@@H]1O	β-galactosidase	ROD	HeLa		0.002 µM
C1CNCCNCC(CCCC2CNCCNCCCNCCNC2)CNCCNC1	cytopathic effect / MTT	ROD	MT-4	5 d	2 µM
CCOCn1c([Se]c2ccccc2)c(C)c(=O)[nH]c1=O	RT activity	ROD	PBMC		27.1 µM
Cc1cn([C@@H]2O[C@H](CO[Si](C)(C)C(C)(C)C)C3(OS(=O)(=O)C=C3N)[C@H]2O[Si](C)(C)C(C)(C)C(C)C)c(=O)n(C)c1=O	syncytia	ROD	MT-4		>30 µM

A second listing of 5 rows from above:

{"compound": "C1CNCCNCC(CCCC2CNCCNCCCNCCNC2)CNCCNC1", "read by": "cytopathic effect / MTT", "strain": "ROD", "cells": "MT-4", "setting": "5 d", "value": "2 µM"}
{"compound": "COc1c(O)c(I)c2c(c1OC)-c1c(c(I)c(O)c(OC)c1OC)C[C@H](C)[C@H](C)C2", "read by": "cytopathic effect / MTT", "strain": "CBL-20", "cells": "MT-4", "value": ">16 µM"}
{"compound": "Cc1c(Sc2ccccc2)n(COCCO)c(=O)[nH]c1=O", "read by": "cytopathic effect / MTT", "strain": "ROD", "cells": "MT-4", "value": ">250 µM"}
{"compound": "CC(C)(C)[Si](C)(C)OCC1OC(n2nncc2C(=O)NC2CC2)C(O[Si](C)(C)C(C)(C)C)C12OS(=O)(=O)C=C2N", "read by": "cytopathic effect", "strain": "ROD", "cells": "CEM", "value": ">50 µM"}
{"compound": "O=S1(=O)NC(Cc2ccc3ccccc3c2)=CC(=NC2CC2)N1", "read by": "MTT", "strain": "ROD", "cells": "MT-4", "value": ">218 µM"}

Conditions beyond the fields shown may differ between rows. Blank or dashed fields: not listed here.